Values from PubChem BioAssay AID504761 (Drosophila RNAi Screening Center, 2011).
Purpose: 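Insect host genes that dengue virus relies on to spread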 (primary screen). Cell system: D.Mel-2 cells from Drosophila. Reagent: long dsRNA against Drosophila genes. Challenge: infection with dengue virus type 2; dose and infection time not stated. Detection: 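Cells stained for dengue envelope protein and imaged; percent of infected cells per well on duplicate plates, ranked by infection, with stained nuclei counted for cell number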. Reading the numbers: infection score: higher = more virus-infected cells; cell count: higher = more cells in the well. Call rule: 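Very low infection ranking in both replicate wells (chance probability at most 0.065), then a retest showing infection dropped 1.5-fold or more at p below 0.05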. Calls: active = confirmed: knock-down lowers infection; inactive = not picked or not confirmed.
The deposit covers about 22,000 reagents; this is a random part of those that have a named target and a result. Over the whole deposit, 116 (0.52%) are marked active. 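Calls depend on retest data that are not deposited; infection was ranked per plate without normalising between plates; the unit of the infection score is not given.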 Raw values vary from plate to plate and are shown uncorrected. Entries without a mark were called inactive. Names joined by + are all predicted targets of the reagent. Not given: the amount of reagent, the time to read-out.

| predicted target | amplicon | infection score, replicate 1 | infection score, replicate 2 | cell count, replicate 1 | cell count, replicate 2 |
| --- | --- | --- | --- | --- | --- |
| Cpr65Au | DRSC22738 | 17.9 | 16 | 3437 | 6752 |
| CG31710 | DRSC01089 | 10.6 | 1.76 | 5952 | 6250 |
| CG31710 | DRSC22863 | 2.21 | 11.8 | 6243 | 5831 |
| CG31710 | DRSC25873 | 7.39 | 1.76 | 6643 | 6548 |
| CG9897 + asRNA:CR42742 | DRSC04595 | 6.99 | 5.79 | 6563 | 6618 |
| stg | DRSC17071 | 3.45 | 2.6 | 5283 | 5683 |
| stg | DRSC27238 | 6.38 | 11.7 | 6704 | 6473 |
| B-H1 | DRSC21922 | 1.81 | 2.99 | 6126 | 6123 |
| B-H1 | DRSC27190 | 10.6 | 22.2 | 7094 | 5524 |
| Txl | DRSC11310 | 0.41 | 3.28 | 6036 | 6186 |
| CG3448 | DRSC10368 | 1.19 | 1.38 | 6146 | 5719 |
| CG3448 | DRSC27580 | 6.53 | 4.5 | 6339 | 6439 |
| Tom40 | DRSC18796 | – | 4.12 | 397 | 510 |
| PolZ2 | DRSC12325 | 4.13 | 7.72 | 6009 | 1477 |
| COX5BL | DRSC02123 | 6.64 | 5.09 | 6218 | 6714 |
| COX5BL | DRSC27300 | 14.2 | 2.8 | 6083 | 6213 |
| Coop | DRSC06604 | 10.9 | 13.2 | 6259 | 5201 |
| Coop | DRSC25252 | 2.45 | 11.7 | 6415 | 5992 |
| CG2574 | DRSC19862 | 0.71 (active) | 1.04 | 6660 | 6438 |
| Tsf1 | DRSC20296 | 8.47 | 6.11 | 6256 | 5960 |
| Tsf1 | DRSC28246 | 11 | 18.6 | 5796 | 5399 |
| ovo | DRSC18050 | 0.82 | 1.66 | 5847 | 6326 |
| ovo | DRSC25801 | 1.23 | 5.27 | 6360 | 5917 |
| CG16965 | DRSC02547 | 4.48 | 1.89 | 6802 | 6716 |
| Ekar | DRSC17161 | 1.42 | 0.93 | 6250 | 6017 |
| Ekar | DRSC24931 | 14.1 | 13.6 | 5515 | 6107 |
| CG9500 | DRSC03237 | 1.73 | 2.48 | 6299 | 6617 |
| CG13186 | DRSC06311 | 18.6 | 14.8 | 3549 | 7304 |
| CG13917 | DRSC08386 | 1.92 | 4.92 | 6352 | 6971 |
| CG13917 | DRSC26895 | 7.48 | 6.81 | 6444 | 6535 |
| Marf | DRSC18329 | 13 | 4.06 | 4815 | 5932 |
| Marf | DRSC28101 | 18.7 | 3.31 | 3410 | 5652 |
| mute | DRSC06562 | 7.7 | 8.21 | 4014 | 4517 |
| mute | DRSC22931 | 1.53 | 1.03 | 5174 | 5431 |
| mute | DRSC29848 | 3.96 | 0.96 | 3584 | 4183 |
| SmD3 | DRSC07553 | 8.07 | 13.7 | 4348 | 4431 |
| SmD3 | DRSC29356 | 17.8 | – | 4457 | 456 |
| CG13829 | DRSC14679 | 4.96 | 2.09 | 6558 | 6834 |
| CG1105 | DRSC12528 | 7.03 | 14.6 | 6007 | 5701 |
| CG1105 | DRSC27366 | 4.97 | 27.2 | 7422 | 6384 |
| AsnRS-m | DRSC07010 | 5.46 | 12.3 | 6504 | 4038 |
| CG13984 | DRSC02316 | 5.61 | 2.93 | 6546 | 6494 |
| CG15597 | DRSC12283 | 2.74 | 11.5 | 6237 | 5452 |
| CG15597 | DRSC24202 | 3.6 | 14.7 | 6465 | 5881 |
| Cpr78Cc | DRSC11846 | 5.31 | 3.63 | 6419 | 6453 |
| gish | DRSC16154 | 11.6 | 6.5 | 5285 | 5663 |
| Capa | DRSC15058 | 5.31 | 4.59 | 5936 | 6582 |
| Ugt35C1 | DRSC16080 | 3.7 | 3.1 | 6730 | 6652 |
| Ugt35C1 | DRSC28306 | 8.75 | 6.82 | 3155 | 1392 |
| Ate1 | DRSC05925 | 6.89 | 13.8 | 3105 | 4826 |
| Ate1 | DRSC24725 | 3.83 | 8.67 | 6523 | 6248 |
| CG14506 | DRSC14858 | 2.65 | 8.64 | 6870 | 4188 |
| CG10333 | DRSC02036 | 12.8 | 6.86 | 5495 | 5306 |
| CG10333 | DRSC29270 | 23.7 | 38.6 | 6022 | 4399 |
| Hacd1 | DRSC02988 | 11.2 | 4.95 | 6315 | 6197 |
| CG5445 | DRSC23180 | 1.01 | 15.7 | 5646 | 6540 |
| Arl1 | DRSC09667 | 2.72 | 1.87 | 5892 | 5997 |
| Rbfox1 | DRSC09034 | 12 | 12.1 | 6231 | 6182 |
| Rbfox1 | DRSC21378 | 6.13 | 18.9 | 5501 | 6377 |
| Rbfox1 | DRSC22992 | 3.09 | 5.91 | 5499 | 6147 |
| Rbfox1 | DRSC25775 | 3.34 | 4.55 | 6326 | 6155 |
